Anti-infective test results gathered from many reports (values: NIAID ChemDB through PubChem).

All rows: whole-cell or culture tests; agent: Herpes simplex virus 1; read by: cytopathic effect; endpoint: EC50

ECn is the concentration giving n% inhibition of infection, replication or growth. Blank or dashed fields: not listed here. Rows are shuffled and stem from different studies.

compound | strain | cell line | changes | result
OC[C@H]1O[C@H](c2ccc(F)cc2F)C[C@@H]1O | McIntyre | E6SM | - | >400 µg/mL
Nc1nc(=O)n([C@@H]2O[C@H](CO)[C@@H](O)[C@@H]2F)cc1I | KOS | RPMI8226 | - | 0.0013 µg/mL
OC[C@H]1O[C@H](c2cc(Br)c(F)cc2F)C[C@@H]1O | VMW 1837 | E6SM | - | >400 µg/mL
COc1ccc(/C=N/NC(=O)c2ccccc2S(=O)(=O)NC(C)C)cc1 | KOS | HEL | - | >100 µM
C[C@H]1[C@H](O)[C@@H](CO)O[C@H]1n1cc(I)c(=O)[nH]c1=O | KOS | RPMI8226 | - | 0.12 µg/mL
Nc1nc(Cl)c2c(ncn2[C@@H]2O[C@H](CO)[C@@H](O)[C@H]2O)n1 | HF | VERO | - | 10 µg/mL
Cc1cn(CC[C@H](O)CCO)c(=O)[nH]c1=O | F | E6SM | - | >400 µg/mL
Nc1ccn(CC(CO)OCP(=O)(O)O)c(=O)n1 | TK- KOS ACVr | Human embryonic lung fibroblasts | - | 6 µM
Nc1nc2c(ncn2[C@@H]2C=C[C@H](CO)[C@@H](O)C2)c(=O)[nH]1 | KOS | E6SM | - | 0.002 µg/mL
OC[C@H]1O[C@@H](c2ccccc2)[C@H](O)[C@@H]1O | KOS | E6SM | - | >400 µg/mL
Nc1nc(N)c2nnn([C@H]3CC[C@H](O)[C@H]3CO)c2n1 | 377 | PRK | - | 2.6 µg/mL
O=c1[nH]c(=O)n([C@@H]2O[C@H](CO)[C@@H](O)[C@@H]2O)cc1/C=C/Br | F | PRK | - | 0.1 µg/mL
O=c1c2ncn(COC(CO)CO)c2nc2[nH]c(-c3ccccc3)cn12 | McIntyre | E6SM | - | 0.005 µg/mL
C[C@H]1[C@H](O)[C@@H](CO)O[C@H]1n1cc(Br)c(=O)[nH]c1=O | KOS | RPMI8226 | - | 0.21 µg/mL
CCOC(=O)Sc1nnc(-c2cn(-c3ccccc3)nc2-c2ccccc2)n1N | KOS | HEL | - | >16 µg/mL
Nc1nc2c(ncn2COCCO)c(=O)[nH]1 | KOS | Human embryonic lung fibroblasts | - | 0.4 µM
Nc1ccn(CC[C@H](O)CCO)c(=O)n1 | F | E6SM | - | >400 µg/mL
C/C(=N/NC(N)=S)c1ccc(NC(=O)CN2C(=O)c3ccccc3S2(=O)=O)cc1 | KOS | HEL | TK-deficient acyclovir-resistant | >100 µM
O=[N+]([O-])c1cc([C@H]2C[C@H](O)[C@@H](CO)O2)c(F)cc1F | F | E6SM | - | >400 µg/mL
OC[C@H]1O[C@@H](c2ccccc2)C[C@@H]1O | KOS | E6SM | - | >400 µg/mL
OC[C@H]1O[C@@H](c2cc(C#CI)c(F)cc2F)C[C@@H]1O | McIntyre | E6SM | - | >400 µg/mL
C/C(=N/Nc1nc(-c2ccc(Br)cc2)cs1)c1ccc(NC(=O)CN2C(=O)c3ccccc3S2(=O)=O)cc1 | KOS | HEL | TK-deficient acyclovir-resistant | >20 µM
Nc1nc(N)c2c(ncn2[C@@H]2O[C@H](CO)[C@@H](O)[C@H]2O)n1 | HF | VERO | - | 0.3 µg/mL
CC1(C)C(OC2O[C@H](C(=O)O)[C@@H](O)[C@H](NC3[C@@H](O)[C@H](O)[C@@H](CO)O[C@@H]3O)[C@H]2OC2O[C@H](O)[C@@H](O)[C@H](O)[C@H]2C(=O)O)CC[C@@]2(C)C1CC[C@]1(C)C2C(=O)C=C2C3C[C@@](C)(C(=O)O)CC[C@]3(C)CC[C@]21C | - | VERO | - | 125 µg/mL
OC[C@H]1O[C@@H](c2cc(C#CBr)c(F)cc2F)C[C@@H]1O | F | E6SM | - | 9.6 µg/mL
Nc1nccc2c1ncn2[C@@H]1C[C@H](CO)[C@@H](O)[C@H]1O | HF | VERO | - | 238 µg/mL
CCOC(=O)C1=CSc2nnc(-c3cn(-c4ccccc4)nc3-c3ccccc3)n2N=C1N | KOS | HEL | - | >16 µg/mL
CC(C)NS(=O)(=O)c1ccccc1-c1n[nH]c(=S)o1 | KOS | HEL | TK-deficient acyclovir-resistant | >100 µM
CO[C@H](CO)[C@@H](O)CCn1cnc2c(=O)[nH]c(N)nc21 | VMW1837 (TK-) | E6SM | - | >400 µg/mL
CO[C@@H]1[C@H](O)[C@@H](CO)O[C@H]1c1ccccc1 | KOS | E6SM | - | >400 µg/mL
Nc1nc2c(ncn2COC(CO)CO)c(=O)[nH]1 | TK- KOS ACVr | Human embryonic lung fibroblasts | - | 4 µM
Nn1c(SCC(=O)O)nnc1-c1cn(-c2ccccc2)nc1-c1ccccc1 | KOS (TK-) | HEL | - | >80 µg/mL
O=c1[nH]c(=O)n([C@@H]2O[C@H](CO)[C@@H](O)[C@@H]2F)cc1I | KOS | RPMI8226 | - | 0.081 µg/mL
[N-]=[N+]=NC(CBr)c1cc([C@H]2C[C@H](O)[C@@H](CO)O2)c(F)cc1F | KOS ACV-R (TK-) | E6SM | - | >400 µg/mL
Nc1ccn([C@@H]2C=C(CO)[C@@H](O)[C@H]2O)c(=O)n1 | B2006 (TK-) | PRK | - | 0.1 µg/mL
O=c1[nH]n2c(-c3cn(-c4ccccc4)nc3-c3ccccc3)nnc2s1 | KOS | HEL | - | >16 µg/mL
c1c[nH]c(CNCc2c(CNCc3ccc[nH]3)c(CNCc3ccc[nH]3)c(CNCc3ccc[nH]3)c(CNCc3ccc[nH]3)c2CNCc2ccc[nH]2)c1 | KOS | Human embryonic lung fibroblasts | - | >20 µM
CC(C)NS(=O)(=O)c1ccccc1C(=O)N/N=C/c1ccc(-c2cccs2)cc1 | KOS | HEL | - | >100 µM
CO[C@H](CO)[C@@H](O)CCn1cc(C)c(=O)[nH]c1=O | B2006 (TK-) | E6SM | - | >400 µg/mL
OC[C@H]1O[C@@H](c2cc(F)c(F)cc2F)C[C@@H]1O | F | E6SM | - | >400 µg/mL
Nc1nc2c(ncn2[C@H]2C=C[C@@H](CO)[C@H](O)C2)c(=O)[nH]1 | McIntyre | E6SM | - | 0.004 µg/mL
Nc1ccn([C@@H]2C[C@H](CO)[C@@H](O)[C@@H]2O)c(=O)n1 | HF | VERO | - | 93 µg/mL
C[C@H]1[C@H](O)[C@@H](CO)O[C@H]1n1cc(Br)c(N)nc1=O | Hangai | RPMI8226 | - | 1.42 µg/mL

Again, the opening 4 rows:

compound,strain,cell line,changes,result
OC[C@H]1O[C@H](c2ccc(F)cc2F)C[C@@H]1O,McIntyre,E6SM,-,>400 µg/mL
Nc1nc(=O)n([C@@H]2O[C@H](CO)[C@@H](O)[C@@H]2F)cc1I,KOS,RPMI8226,-,0.0013 µg/mL
OC[C@H]1O[C@H](c2cc(Br)c(F)cc2F)C[C@@H]1O,VMW 1837,E6SM,-,>400 µg/mL
COc1ccc(/C=N/NC(=O)c2ccccc2S(=O)(=O)NC(C)C)cc1,KOS,HEL,-,>100 µM